# PubChem BioAssay AID1259414 – Drosophila RNAi Screening Center, 2018
# Aim: 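Genome-wide screen for host control of endosymbiont load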 (primary screen)
# Cells: Drosophila JW18 cells infected with Wolbachia
# Reagents: long dsRNA against Drosophila genes, 0.25 µg dsRNA per well of a 384-well plate
# Timing: 5 days
# Conditions: cells persistently infected with Wolbachia before knock-down; no added drug
# Read-out: 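Imaged fluorescence in situ signal for Wolbachia 23S rRNA per DAPI-counted host cell, given as a robust z-score within each plate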
# Reading the numbers: Wolbachia per cell robust z: higher = more Wolbachia per host cell than the plate typical
# Rule for the call: 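Active if absolute robust z reaches 1.5 in two or more of three replicates, leaving out multi- or no-target dsRNAs, genes unexpressed in JW18 and A1 wells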
# The screen tested about 24,000 reagents; this is a random part of those with a known target gene and a result. Over the whole deposit, about 1,210 (5%) got an active call. 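Inactive calls also include excluded dsRNAs with several or no targets, genes unexpressed in JW18, and well A1, regardless of score.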 Reagents against one gene are numbered here. A plus sign joins genes that one reagent is predicted to hit. Reagent sequences are not shown.
gene,reagent no.,"Wolbachia per cell robust z, rep 1","Wolbachia per cell robust z, rep 2","Wolbachia per cell robust z, rep 3",Outcome
CG30016,1,1.28,0.378,-7.78,inactive
CG34054,1,1.72,1.07,0.763,inactive
Gr98b (Gustatory receptor 98b),1,-0.896,-0.259,-0.333,inactive
Parp16 (Poly(ADP-ribose) polymerase 16),1,-0.476,-0.559,0.647,inactive
Parp16 (Poly(ADP-ribose) polymerase 16),2,-4.6,0.443,-10.9,inactive
CR34320 (pseudo),1,0.181,0.673,-0.658,inactive
Fer1 (48 related 1),1,-0.319,1.02,-0.669,inactive
Fer1 (48 related 1),2,0.394,0.678,-0.894,inactive
Fer1 (48 related 1),3,-0.542,-1.69,-0.162,inactive
Rpn3 (Regulatory particle non-ATPase 3),1,2.45,2.16,-1.51,active
Rpn3 (Regulatory particle non-ATPase 3),2,-2.79,-0.123,-1.54,inactive
CG30122,1,0.945,0.988,-0.0489,inactive
bbc (bb in a boxcar),1,-0.362,0.202,-3.04,inactive
bbc (bb in a boxcar),2,-0.634,-0.614,-0.824,inactive
Septin4 (Septin 4),1,0.918,1.08,-1.55,inactive
Septin4 (Septin 4),2,-1.12,-0.432,-1.47,inactive
CG42481,1,0.281,-0.289,-0.998,inactive
CG14107,1,0.451,-1.07,1.67,inactive
CG14107,2,-1.4,-0.374,0.419,inactive
lncRNA:CR32652 (long non-coding RNA:CR32652),1,-1.97,-1.25,0.366,inactive
lncRNA:CR32652 (long non-coding RNA:CR32652),2,-0.143,0.103,-1.46,inactive
lncRNA:CR32652 (long non-coding RNA:CR32652),3,-0.726,0.811,-0.487,inactive
CG1690,1,0.628,-3.49,0.761,inactive
CG13255,1,-1.17,-0.597,-2.17,inactive
Cap-G (Chromosome associated protein G),1,-0.414,0.502,1,inactive
Cap-G (Chromosome associated protein G),2,-0.673,-0.0907,-2.23,inactive
Cap-G (Chromosome associated protein G),3,1.16,-0.177,0.385,inactive
CG5892,1,-5.27,0.629,-0.741,inactive
CG5892,2,-0.334,-0.19,-2.33,inactive
Prx6a (Peroxiredoxin 6a),1,0.691,-0.478,-0.787,inactive
JMJD6 (Jumonji domain containing 6),1,0.0282,-5.52,-2.26,active
JMJD6 (Jumonji domain containing 6),2,-0.227,0.304,-0.775,inactive
CG42820,1,-0.612,0.881,0.274,inactive
CG42820,2,-0.854,0.0151,-0.358,inactive
MED22 (Mediator complex subunit 22),1,-0.336,0.234,-0.412,inactive
nompC (no mechanoreceptor potential C),1,0.915,0.213,0.268,inactive
Graf (GTPase regulator associated with FAK),1,-4.5,0.206,0.0424,inactive
fs(1)Yb (female sterile (1) Yb),1,0.214,0.573,-1.03,inactive
CG5359,1,0.866,-4.08,-0.0505,inactive
CTCF,1,0.262,-0.187,-7.89,inactive
CTCF,2,-0.00431,0.309,-1.54,inactive
IKKbeta (I-kappaB kinase beta),1,-1.62,-0.422,-1.02,inactive
IKKbeta (I-kappaB kinase beta),2,-0.499,-0.155,-2.14,inactive
CG43318,1,-0.92,0.816,-0.124,inactive
Pop5 (POP5 ribonuclease P/MRP subunit),1,-1.35,-0.0955,-0.531,inactive
CG6290,1,-2.91,-3.45,-4.76,inactive
CG6290,2,0.885,-1.4,0.432,inactive
CG10226,1,-0.0109,1.11,0.422,inactive
Cog7 (Component of oligomeric golgi complex 7),1,-2.19,-2.21,0.104,active
Zmynd10 (Zinc finger MYND-type containing 10),1,0.65,1.88,2.31,active
Zmynd10 (Zinc finger MYND-type containing 10),2,0.167,-0.977,0.874,inactive
Zmynd10 (Zinc finger MYND-type containing 10),3,0.499,-0.381,0.139,inactive
twz (tiwaz),1,1.01,0.383,0.765,inactive
twz (tiwaz),2,0.738,-1.21,-0.337,inactive
mRpS16 (mitochondrial ribosomal protein S16),1,0.351,0.589,0.524,inactive
pck (pickel),1,0.806,0.799,-0.444,inactive
mthl10 (methuselah-like 10),1,-2.84,-0.647,0.174,inactive
mthl10 (methuselah-like 10),2,0.217,-3.64,-2.38,active
mthl10 (methuselah-like 10),3,-2.82,0.635,-1.4,inactive
sip2 (septin interacting protein 2),1,-0.215,-1.57,0.907,inactive
Cyp6a15Psi (pseudo),1,0.0754,-0.0628,0.674,inactive
Cyp6a15Psi (pseudo),2,-0.23,-0.143,-0.803,inactive
Jhbp7 (Juvenile hormone binding protein 7),1,0.502,-1.48,0.174,inactive
Jhbp7 (Juvenile hormone binding protein 7),2,0.344,3.1,1.51,inactive
CG3679,1,0.154,0.404,-0.62,inactive
CG3679,2,0.847,-1.26,-1.78,inactive
CG8851,1,-0.129,-4,0.706,inactive
CG8851,2,0.663,-5.51,-0.791,inactive
CG13625,1,-7.48,-0.267,-0.448,inactive
CG7785,1,-0.000772,-4.71,-0.937,inactive
Cdk5alpha (Cdk5 activator-like protein),1,0.468,0.169,0.722,inactive
Cdk5alpha (Cdk5 activator-like protein),2,-1.56,-0.0223,-0.233,inactive
Prosalpha5 (Proteasome alpha5 subunit),1,1.62,1.47,1.19,inactive
CG13157,1,0.0121,-0.725,0.814,inactive
CG8320 + ATPCL,1,0.87,0.974,-1.82,inactive
Rga (Regena),1,-5.45,1.22,1.17,inactive
Drgx (Dorsal root ganglia homeobox),1,-0.747,-6.72,-0.638,inactive
Drgx (Dorsal root ganglia homeobox),2,-0.0457,-4.77,0.694,inactive
Drgx (Dorsal root ganglia homeobox),3,0.13,-0.327,-0.269,inactive
MTA1-like (Metastasis associated 1-like),1,-0.531,-0.0696,-0.828,inactive
MTA1-like (Metastasis associated 1-like),2,-0.585,-1.97,-1.37,inactive
MTA1-like (Metastasis associated 1-like),3,-1.58,1.34,0.832,inactive
MTA1-like (Metastasis associated 1-like),4,0.905,-0.256,0.204,inactive
Cep164 (centrosomal protein 164),1,-2.25,0.136,-0.602,inactive
CG42390,1,-0.948,0.68,0.177,inactive
CG42390,2,0.105,-6.67,1.34,inactive
Brd (Bearded),1,0.294,-1.02,0.206,inactive
Brd (Bearded),2,-0.389,0.447,0.413,inactive

Laid out differently: results already given.
gene | reagent no. | Wolbachia per cell robust z, rep 1 | Wolbachia per cell robust z, rep 2 | Wolbachia per cell robust z, rep 3 | Outcome
Cdk5alpha (Cdk5 activator-like protein) | 2 | -1.56 | -0.0223 | -0.233 | inactive
Prosalpha5 (Proteasome alpha5 subunit) | 1 | 1.62 | 1.47 | 1.19 | inactive
CG13157 | 1 | 0.0121 | -0.725 | 0.814 | inactive
CG8320 + ATPCL | 1 | 0.87 | 0.974 | -1.82 | inactive
Rga (Regena) | 1 | -5.45 | 1.22 | 1.17 | inactive
Drgx (Dorsal root ganglia homeobox) | 1 | -0.747 | -6.72 | -0.638 | inactive
Drgx (Dorsal root ganglia homeobox) | 2 | -0.0457 | -4.77 | 0.694 | inactive
Drgx (Dorsal root ganglia homeobox) | 3 | 0.13 | -0.327 | -0.269 | inactive
MTA1-like (Metastasis associated 1-like) | 1 | -0.531 | -0.0696 | -0.828 | inactive
